The match of structure and compound is tentative.
Target: hepatitis C virus RNA dependant polymerase (NS5B) (Hepatitis C virus genotype 1b, UniProt P26663)
Assay: Inhibition of NS5B RNA dependent RNA polymerase activity
Format: biochemical
Description: A suitable assay is described in the examples.
Inhibition of NS5B RNA Dependent RNA Polymerase Activity
The compounds of the invention were tested for inhibitory activity against the hepatitis C virus RNA dependant polymerase (NS5B), according to protocol described in WO 03/010141

By UniProt entry, the sequences of proteins in these tests, tags left out. Residues count along the entry.
UniProt P26663, 2420-3010 limits assumed: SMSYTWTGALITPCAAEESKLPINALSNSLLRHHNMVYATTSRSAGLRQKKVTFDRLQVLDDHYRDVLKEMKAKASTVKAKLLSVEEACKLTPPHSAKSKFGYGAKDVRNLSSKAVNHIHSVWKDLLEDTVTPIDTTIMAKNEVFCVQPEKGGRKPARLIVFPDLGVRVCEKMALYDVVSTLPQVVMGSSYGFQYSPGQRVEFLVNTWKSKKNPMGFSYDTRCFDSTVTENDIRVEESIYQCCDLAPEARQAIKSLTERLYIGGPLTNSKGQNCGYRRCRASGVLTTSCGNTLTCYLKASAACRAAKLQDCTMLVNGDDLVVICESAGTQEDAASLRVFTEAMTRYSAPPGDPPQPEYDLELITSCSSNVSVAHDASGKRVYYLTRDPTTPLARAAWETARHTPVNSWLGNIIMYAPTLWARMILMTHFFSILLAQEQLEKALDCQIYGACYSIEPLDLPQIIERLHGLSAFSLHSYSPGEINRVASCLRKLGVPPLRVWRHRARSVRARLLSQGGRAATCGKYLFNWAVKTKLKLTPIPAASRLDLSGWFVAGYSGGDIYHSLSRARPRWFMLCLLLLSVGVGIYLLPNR

Structure (SMILES) | IC50 (Table 2, HCV NS5B polymerase) | IC50 (Table 1, HCV NS5B polymerase) | other results
CCOc1ccc2nc(S(=O)(=O)NC(=O)c3ccc4c(C5CCCCC5)c(-c5ccoc5)n(CC(=O)N5CCOCC5)c4c3)sc2c1 | < 200 nM | – | –
O=C(O)c1ccc2c(C3CCCC3)c(-c3ccoc3)n(CC(=O)N3CCOCC3)c2c1 | – | < 200 nM | –
O=C(O)c1ccc2c(C3CCCCC3)c(-c3ccoc3)n(CC(=O)N3CCCCC3)c2c1 | – | < 200 nM | –
COc1ccc(OC)c(S(=O)(=O)NC(=O)c2ccc3c(C4CCCCC4)c(-c4ccoc4)n(CC(=O)N4CCOCC4)c3c2)c1 | < 200 nM | – | –
O=C(NCc1ccccc1Sc1ccccc1CO)c1ccc2c(c1)c(C1CCCCC1)c(-c1ccoc1)n2CC(=O)N1CCC(N2CCCC2)CC1 | – | – | IC50 (Table 7, class ranges): 1000 to 10000 nM
COC(=O)[C@]1(NC(=O)c2ccc3c(C4CCCCC4)c(-c4ccoc4)n(CC(=O)N4CCOCC4)c3c2)CCNC1 | – | – | IC50 (Table 4, class ranges): 200 to 1000 nM

From patent publication US7888363B2, “Viral polymerase inhibitors” (Boehringer Ingelheim International GmbH, priority 2003, dated 2011)
